A mixed list of measured activities; the numbers were collected in NIAID ChemDB.

Shared fields: growth or infection tests; species: Candida albicans; read-out: MIC

Rows are shuffled and stem from different studies. An empty or dashed field is not shown.

structure | strain or isolate | read by | value
CC(N1CCN(c2ccc(-n3cnnn3)cc2)C1=O)[C@](O)(Cn1cncn1)c1ccc(F)cc1F | TIMM1756 | - | 0.03 µg/mL
Nc1[nH]c(=O)ncc1F | ATCC 64548 | - | 0.12 µg/mL
C=C1C[C@@H]2C[C@@H]3CCO[C@@H](O3)c3cccc(c3)/C=C/C[C@H]3O[C@@H](/C(C)=C/I)[C@H](C)[C@@H](OC(=O)/C=C/C[C@@H](C1)O2)[C@H]3C | UCD-FR1 | broth dilution | >64 µg/mL
CSc1cc(-c2ccc(-c3cccnc3)cc2)c(C(=O)O)s1 | SKF | - | >100 µg/mL
CN1C(=O)/C(=c2/[nH][nH]c(=O)/c2=C\c2ccccc2)C(=O)c2ccccc21 | ATCC 10231 | - | 50 µg/mL
Cc1ccc(N=Nc2ccc(O)c(C[N+](C)(C)COC3CCCCCCCCCCC3)c2)cc1 | - | - | 1994 µM
C=C1C[C@@H]2C[C@@H]3CCO[C@@H](O3)c3cccc(c3)/C=C\C[C@H]3O[C@@H](/C(C)=C/I)[C@H](C)[C@@H](OC(=O)/C=C/C[C@@H](C1)O2)[C@H]3C | ATCC 14503 | broth dilution | >64 µg/mL
CCCCCCOC[N+](C)(C)Cc1cc(N=Nc2ccc(Cl)cc2)ccc1O | - | - | 70 µM
COc1ccc(C[C@H](N)C(=O)N[C@H]2[C@@H](O)[C@H](n3ccc(=O)[nH]c3=O)O[C@@H]2C(=O)O)cc1 | FP633 | - | >100 µg/mL
C[C@@]1(C=O)CC[C@H](COC(=O)c2ccccc2)[C@@]1(C)C(=O)O | 2005E | - | 102 µM
C=CCSCC[C@H](N)C(=O)N[C@H]1[C@@H](O)[C@H](n2cnc3c(N)ncnc32)O[C@@H]1C(=O)O | FP633 | - | 12.5 µg/mL
CC[C@@H]([C@H](C)O)n1ncn(-c2ccc(N3CCN(c4ccc(OC[C@@H]5CO[C@@](Cn6cncn6)(c6ccc(F)cc6F)C5)cc4)CC3)cc2)c1=O | Isolate CA-3 | - | >4 µg/mL
Nc1ncnc2c1ncn2[C@@H]1O[C@H](C(=O)O)[C@@H](NC(=O)CC(N)c2ccccc2)[C@H]1O | FP633 | - | >100 µg/mL
C[C@@]1(C=O)CC[C@H](COC2CCCCO2)[C@@]1(C)C(=O)O | 2005E | - | 56 µM
COc1ccc(C[C@H](NC(=O)[C@@H](N)CCCN=C(N)N)C(=O)N[C@H]2[C@@H](O)[C@H](n3cnc4c(N)ncnc43)O[C@@H]2C(=O)O)cc1 | FP633 | - | 100 µg/mL
Cn1c(=O)c(-c2[nH][nH]c(=O)c2N=Nc2ccc(Cl)cc2)c(O)c2ccccc21 | ATCC 10231 | - | >100 µg/mL
CCCCCCCOC[N+](C)(C)Cc1cc(N=Nc2ccc(C)cc2)ccc1O | - | - | 288 µM
Cn1c(=O)c(-c2[nH][nH]c(=O)c2/C=N/c2cscn2)c(O)c2ccccc21 | ATCC 10231 | - | 50 µg/mL
CCOC(=O)c1sc2cc(-c3ccc([N+](=O)[O-])cc3)oc(=O)c2c1N | SKF | - | >100 µg/mL
Cc1c(Sc2ccccc2)[n+](=O)c2cc(Cl)ccc2n1[O-] | Clinical isolate 9 | - | 31.25 µg/mL
Cn1c(=O)c(-c2[nH][nH]c(=O)c2N=Nc2ccccc2Br)c(O)c2ccccc21 | ATCC 10231 | - | >100 µg/mL
CCOC(=O)c1sc2cc(-c3ccc(Cl)cc3)oc(=O)c2c1N | SKF | - | >100 µg/mL
Cc1c(Cl)[n+](=O)c2cc(Cl)ccc2n1[O-] | Clinical isolate 3 | - | 15.6 µg/mL
C=C1C[C@@H]2C[C@@H]3CCO[C@@H](O3)c3coc(n3)/C=C/C[C@H]3O[C@@H](/C(C)=C/I)[C@H](C)[C@@H](OC(=O)/C=C/C[C@@H](C1)O2)[C@H]3C | 96-489 | broth dilution | >64 µg/mL
C[C@H]1[C@H](O)[C@@H](C)/C=C/C=C/C=C/C=C/C=C/C=C/C=C/[C@H](O[C@@H]2O[C@H](C)[C@@H](O)[C@H](N)[C@@H]2O)C[C@@H]2O[C@](O)(C[C@@H](O)C[C@@H](O)CC[C@H](O)[C@@H](O)C[C@@H](O)CC(=O)O[C@H]1C)C[C@H](O)[C@H]2C(=O)O | ATCC 10231 | - | >100 µg/mL
Nc1ncnc2c1ncn2[C@@H]1O[C@H](C(=O)O)[C@@H](NC(=O)C(N)CSCc2ccncc2)[C@H]1O | FP633 | - | 0.8 µg/mL
C[C@@]1(C=O)CC[C@H](CO)[C@@]1(C)C(=O)O | 2005E | - | >624 µM
C[C@@H](N1CCN(c2ccc(-n3cnnn3)cc2)C1=O)[C@@](O)(Cn1cncn1)c1ccc(F)cc1F | TIMM1756 | - | 4 µg/mL
CCOC(=O)c1sc(SC)c(C#N)c1N | SKF | - | >100 µg/mL
C=C1C[C@@H]2C[C@@H]3CCO[C@@H](O3)c3coc(n3)/C=C/C[C@H]3O[C@@H](/C(C)=C/c4coc(C[C@]5(OC)C[C@H](OC)C[C@H]([C@H](O)/C=C(C)/C=C/[C@@H](C/C=C/Cl)OC)O5)n4)[C@H](C)[C@@H](OC(=O)/C=C\C[C@@H](C1)O2)[C@H]3C | UCD-FR1 | broth dilution | >64 µg/mL
Cc1ccc(N=Nc2c(-c3c(O)c4ccccc4n(C)c3=O)[nH][nH]c2=O)cc1 | ATCC 10231 | - | >100 µg/mL
CCC(C)n1ncn(-c2ccc(N3CCN(c4ccc(OC[C@H]5CO[C@](Cn6cncn6)(c6ccc(Cl)cc6Cl)O5)cc4)CC3)cc2)c1=O | Isolate CA-4 | - | >8 µg/mL
C=C1C[C@@H]2C[C@@H]3CCO[C@@H](O3)c3coc(n3)/C=C/C[C@H]3O[C@@H](/C(C)=C/I)[C@H](C)[C@@H](OC(=O)/C=C\C[C@@H](C1)O2)[C@H]3C | UCD-FR1 | broth dilution | >64 µg/mL
CCCCCCOC[N+](C)(C)Cc1cc(N=Nc2ccc(C)cc2)ccc1O | - | - | 38 µM
COc1ccc(/C=c2\c(=O)[nH][nH]\c2=C2/C(=O)c3ccccc3N(C)C2=O)cc1OC | ATCC 10231 | - | 50 µg/mL
CCOC(=O)c1sc(SC)cc1-c1ccccc1 | SKF | - | >100 µg/mL
Nc1ncnc2c1ncn2[C@@H]1O[C@H](C(=O)NO)[C@@H](NC(=O)[C@H](N)CSCc2ccccc2)[C@H]1O | FP633 | - | 6.2 µg/mL
Cc1c(S(=O)(=O)c2ccccc2)[n+](=O)c2ccccc2n1[O-] | Clinical isolate 10 | - | 31.25 µg/mL
CCCCCOC[N+](C)(C)Cc1cc(N=Nc2ccc(Cl)cc2)ccc1O | - | - | 875 µM
Cc1c(Sc2ccccc2)[n+](=O)c2cc(C(F)(F)F)ccc2n1[O-] | Clinical isolate 6 | - | 15.6 µg/mL
CN1C(=O)/C(=c2/[nH][nH]c(=O)/c2=C\c2ccccn2)C(=O)c2ccccc21 | ATCC 10231 | - | >100 µg/mL

5 of the rows above, restated:

structure	strain or isolate	read by	value
C[C@@]1(C=O)CC[C@H](CO)[C@@]1(C)C(=O)O	2005E	-	>624 µM
Nc1[nH]c(=O)ncc1F	ATCC 64548	-	0.12 µg/mL
C=C1C[C@@H]2C[C@@H]3CCO[C@@H](O3)c3cccc(c3)/C=C\C[C@H]3O[C@@H](/C(C)=C/I)[C@H](C)[C@@H](OC(=O)/C=C/C[C@@H](C1)O2)[C@H]3C	ATCC 14503	broth dilution	>64 µg/mL
Cc1ccc(N=Nc2ccc(O)c(C[N+](C)(C)COC3CCCCCCCCCCC3)c2)cc1	-	-	1994 µM
COc1ccc(/C=c2\c(=O)[nH][nH]\c2=C2/C(=O)c3ccccc3N(C)C2=O)cc1OC	ATCC 10231	-	50 µg/mL